Source: patent publication US20060034823A1, “Method of production and use of crotoxin as an analgesic” (priority 2004, published 2006)

Test system: pain response in mice induced by Hot Plate
Type: in vivo, Kunming mice
Conditions: for difference to crotoxin on a molar basis: hot-plate model, doses compared on a molar basis

Structure (SMILES)	difference to crotoxin on a molar basis	quantity administered relative to the quantity of crotoxin (Dolantin 40 mg/kg vs crotoxin 90 mcg/kg, almost equivalent effect)
CC(=O)Oc1ccccc1C(=O)O [Acetylsalicylic acid, acetylsalicylic acid]	over 300,000 fold	
CCOC(=O)C1(c2ccccc2)CCN(C)CC1 [Dolantin, Meperidine hydrochloride]	35,000 fold	over 400 times

Where a name gives a salt, the structure may show the parent alone.
